Reference: paper PMC9921063 (Molecules, 2023)

Columns and labels:
Details in all cases: CC50 (Vero) over IC50
[1] = tested on: T. gondii tachyzoites RH strain; experiment: Antitoxoplasmal assay; type: cell-based, Toxoplasma gondii
Protocol: This assay was carried out according to the methods mentioned in our previously published article. Vero cells line (ATCC® CCL81™, USA) were used for the serial passage and cultivation of T. gondii tachyzoites RH strain, complete RPMI 1640 medium with heat-inactivated 10% FBS was used for the culture and in vitro evaluation, while atovaquone (ATO) was used as reference drug. The results were expressed in IC50 of three independent readings, followed by the selectivity index (SI) calculation by dividing CC50 over IC50 of the same compound [56].

L. major amastigotes = experiment: Antileishmanial assay, amastigotes; type: cell-based, Leishmania major
Protocol: (§1) This assay was carried out according to the methods mentioned in our previously published article. L. major promastigotes were isolated locally from an indoor patient in 2016, liquid nitrogen was used for the preservation of the parasites, and BALB/c mice were used for the maintenance of the parasites and production of L. major amastigotes. Phenol red-free RPMI 1640 medium (Invitrogen, USA) with 10% FBS was used for the culture and in vitro evaluation, while amphotericin B (AmB) was used as reference drug.

L. major promastigotes = experiment: Antileishmanial assay, promastigotes; type: cell-based, Leishmania major
Protocol: as §1

Row | Compound | SI Toxoplasma [1] | Amastigote SI (L. major amastigotes) | Promastigote SI (L. major promastigotes)
1 | 5,6-dimethyl-1,3-bis(2,3,4,5,6-pentamethylbenzyl)-1H-benzo[d]imidazol-3-ium bromide [Compound 2a] | 0.14 | 1.1 | 0.4
2 | Cc1cc(C)c(Cn2c[n+](Cc3c(C)cc(C)cc3C)c3cc(C)c(C)cc32)c(C)c1.[Br-] [Compound 2b, 5,6-dimethyl-1,3-bis(2,4,6-trimethylbenzyl)-1H-benzo[d]imidazol-3-ium bromide] | 0.3 | 3.7 | 0.5
3 | Cc1ccc(C[n+]2cn(Cc3ccc(C(C)(C)C)cc3)c3cc(C)c(C)cc32)cc1 [Compound 2c, 5,6-dimethyl-1,3-((4-(tert-butyl)-4-methyl-benzyl)-1H-benzo[d]imidazol-3-ium bromide] | 1.4 | 1.7 | 0.5
